{
  "sequences": {"note": "Protein sequences, listed by entry. Tags and fused reporters are not part of them. Residues count along the entry.", "UniProt Q962Y6, 1-598": "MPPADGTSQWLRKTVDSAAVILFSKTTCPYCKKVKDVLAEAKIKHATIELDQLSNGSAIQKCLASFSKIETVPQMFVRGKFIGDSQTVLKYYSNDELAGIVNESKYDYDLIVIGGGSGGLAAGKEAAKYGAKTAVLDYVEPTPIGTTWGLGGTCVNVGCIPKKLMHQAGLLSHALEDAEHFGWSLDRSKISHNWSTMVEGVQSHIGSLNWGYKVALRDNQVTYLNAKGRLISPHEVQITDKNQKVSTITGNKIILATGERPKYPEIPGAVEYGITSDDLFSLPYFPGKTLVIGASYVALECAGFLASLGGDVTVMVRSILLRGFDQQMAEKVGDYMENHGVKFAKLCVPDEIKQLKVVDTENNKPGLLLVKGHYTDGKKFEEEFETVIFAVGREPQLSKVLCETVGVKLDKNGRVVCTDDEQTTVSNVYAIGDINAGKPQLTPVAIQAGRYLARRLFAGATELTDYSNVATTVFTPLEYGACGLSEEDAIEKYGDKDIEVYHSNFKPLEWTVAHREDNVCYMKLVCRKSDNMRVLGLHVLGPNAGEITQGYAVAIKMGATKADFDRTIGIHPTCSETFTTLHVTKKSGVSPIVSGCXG"},
  "source": "paper PMC1892040",
  "about": "(PLoS Medicine, 2007)",
  "key": {"S. mansoni TGR [1]": {"target": "T1, S. mansoni TGR (Schistosoma mansoni, UniProt Q962Y6)", "settings": "read-out: IC50 S. mansoni TGR, DTNB (TrxR activity), 3 mM DTNB, 15 min preincubation with 100 μM NADPH"}, "S. mansoni TGR [2]": {"target": "T1, S. mansoni TGR", "settings": "read-out: IC50 S. mansoni TGR, GSSG (GR activity), 100 μM GSSG, 15 min preincubation with 100 μM NADPH"}},
  "note": "Where two headings read alike, the source gives them in different places.",
  "data": [
    {"compound": "CC1=C(CBr)C(=O)c2c(O)ccc(O)c2C1=O", "values": [
      {"measurement": "IC50", "setting": "S. mansoni TGR [1]", "value": 0.5, "unit": "µM"},
      {"measurement": "IC50", "setting": "S. mansoni TGR [2]", "value": 1, "unit": "µM"}
    ]},
    {"compound": "CN(C)CCC(=O)/C=C/c1ccccc1Cl", "values": [
      {"measurement": "IC50", "setting": "S. mansoni TGR [1]; tested form: HCl", "value": 7, "unit": "µM"},
      {"measurement": "IC50", "setting": "S. mansoni TGR [2]; tested form: HCl", "value": 0.5, "unit": "µM"}
    ]},
    {"compound": "CC(C)(C)OC(=O)NCCCC1=C(CCCNC(=O)OC(C)(C)C)C(=O)c2c(O)cccc2C1=O", "values": [
      {"measurement": "IC50", "setting": "S. mansoni TGR [1]", "value": 8, "unit": "µM"},
      {"measurement": "IC50", "setting": "S. mansoni TGR [2]", "value": 8, "unit": "µM"}
    ]}
  ]
}
